The results in this text go back to paper PMC6208348 (Nature Communications, 2018).

Series [1] concerns the target T1, GST-fused L. pneumophila RavO SH2 domain (Gly212-Asp406) (Legionella pneumophila, UniProt Q5ZWF6 212-406).
T1 construct: also called GST-RavO SH2; GST-tagged RavO SH2 domain; source: E. coli BL21(DE3), purified (Ni-NTA, dialysis)
Description: peptide or protein array.

The series “crystal structure” concerns the molecule itself. Description: crystal structure.

B1: Shc1 pTyr317 peptide (DPSpYVNVQNL) on the permutation array (peptide)
peptide: DPSYVNVQNL
B1: in series [1], the binding result is “binds”.

B2: L. pneumophila RavO SH2 domain (residues 225-344, crystallised with the Shc1 peptide) (domain or fragment)
chain: ESEKIYKVMEEIFVDRHYKENIRTGEEVKQYFSKSKAEFILRWSSANESDTENKYVFIAASFQASDGIHSIRYGINKNGELFSINTASNKVTPIDILPLGVMATLTQHITQNKELIEKAL
For the molecule B2, in “crystal structure”, the binding result is reported as “binds”.
